Compound potency records, mixed from different reports. Data source: NIAID ChemDB in PubChem.

Shared fields: host protein counter-tests

Blank or dashed fields: not listed here. ICn: concentration for n% inhibition. Rows are shuffled and stem from different studies. Inhibition is in % at the dose shown (toxicity tests: loss of growth or viability).

smiles | protein | endpoint | method | organism | tested at | result
CCCCNC(=O)[C@H](C)C[C@H](O)[C@H](CC1CCCCC1)NC(=O)[C@@H](NC(=O)[C@H](Cc1cccc2ccccc12)NC(=O)OC(C)(C)C)C(C)C | Pepsin | IC50 | - | - | - | 0.8 µM
O=C1C=C(CF)C(=O)c2ccccc21 | Glutathione reductase | IC50 | - | Human | - | 5.4 µM
C[C@@]1(CO)[C@H](O)CC[C@@]2(C)[C@H]1CC[C@H]1C[C@@H]3C[C@@]12CC[C@]3(O)CO | DNA polymerase epsilon | IC50 | radiometric | Human | - | 5 µM
c1cc(CN2CCCNCCNCCCNCC2)ccc1CN1CCCNCCNCCCNCC1 | CXCR1 | IC50 | calcium flux | Human | - | >25 µg/mL
C[N+]1(CC2CCCCCC2)CCC(NC(=O)C2c3cc(Cl)ccc3Oc3ccc(Cl)cc32)CC1 | CCR1 | IC50 | - | Human | - | 0.0198 µM
O=Cc1ccc(/C=C/c2nsc(=O)o2)o1 | Proteasome | IC50 | broth dilution / fluorescence | Human | - | >10 µM
CCCCNC(=O)[C@H](C)C[C@H](O)[C@H](CC1CCCCC1)NC(=O)[C@@H](NC(=O)[C@H](CCCN)NC(=O)OCc1ccccc1)C(C)C | Renin | IC50 | - | - | - | 5.6 µM
CC[C@H]1C[C@]1(NC(=O)[C@@H]1C[C@@H]2CN1C(=O)[C@H](C(C)(C)C)NC(=O)OCC(C)(C)CCCCc1cccc3c1CN(C3)C(=O)O2)C(=O)NS(=O)(=O)C1CC1 | Thrombin | IC90 | substrate cleavage | - | - | >100 µM
CCc1nc(N)nc(N)c1OCCCOc1ccccc1CCC(=O)O | Dihydrofolate reductase | Ki | absorbance | Human | - | 2.841 µM
O=C(CN1C(=O)CN=C(c2ccccc2)c2ccccc21)NCC1CC(Br)=NO1 | Cathepsin B | inhibition | fluorescence | Human | 20 µM | 0%
CC1(C)S[C@H]([C@H](NC(=O)Cc2ccccc2)C(=O)NCc2ccccc2)N[C@H]1C(=O)N[C@H](Cc1ccccc1)[C@H](O)CC(=O)NCc1ccccc1 | Renin | IC50 | HPLC | Human | - | >500 µM
CCCCNC(=O)[C@H](C)C[C@H](O)[C@H](CC1CCCCC1)NC(=O)[C@@H](NC(=O)[C@H](CCC(N)=O)NC(=O)OC(C)(C)C)C(C)C | Pepsin | IC50 | - | - | - | 0.18 µM
C=CCN(C(=O)OCc1ccc([N+](=O)[O-])cc1)C1CCN(CC[C@](C)(CN(C)S(=O)(=O)c2ccccc2)c2ccccc2)CC1 | CCR1 | IC50 | radioligand binding / binding | Human | - | >1 µM
C=C1C(=O)C[C@@H]2/C=C(\COC(C)=O)CC/C=C(/C=O)[C@H](OC(C)=O)[C@@H](OC(=O)C(C)CC)[C@@H]12 | Dehydrogenase | IC50 | MTT / absorbance | Mus musculus | - | 17.3 µg/mL
CO[P@](=O)(c1cc(C)cc(/C=C/C#N)c1)c1c(C(N)=O)[nH]c2ccc(Cl)cc12 | DNA polymerase alpha | IC50 | - | Human | - | 159.3 µM
Nc1nc(N)nc(-c2ccc(OCc3cccc(Cl)c3)cc2)n1 | Dihydrofolate reductase | IC50 | absorbance | Human | - | 72.49 µM
COc1cc(-c2cc(=O)c3c(O)cc(O[C@@H]4O[C@H](CO)[C@@H](O)[C@H](O)[C@H]4OS(=O)(=O)O)cc3o2)ccc1O | Topoisomerase | IC50 | - | Molluscum contagiosum virus | - | >200 µM
CCNC(=O)[C@@H](NC(=O)Cc1ccccc1)[C@@H]1N[C@@H](C(=O)NCCNC(=O)[C@@H]2N[C@@H]([C@H](NC(=O)Cc3ccccc3)C(=O)NCC)SC2(C)C)C(C)(C)S1 | Renin | IC50 | HPLC | Human | - | >500 µM